Test results from ChEMBL document CHEMBL4715914, “Chemical validation of a druggable site on Hsp27/HSPB1 using in silico solvent mapping and biophysical methods” (Bioorg Med Chem, 2021).
Calls of active or inactive are those of the source. The rule behind the calls is not given here.

Chains of the proteins cited; added tags and fusions are not shown.
UniProt P04792, whole entry, looked up: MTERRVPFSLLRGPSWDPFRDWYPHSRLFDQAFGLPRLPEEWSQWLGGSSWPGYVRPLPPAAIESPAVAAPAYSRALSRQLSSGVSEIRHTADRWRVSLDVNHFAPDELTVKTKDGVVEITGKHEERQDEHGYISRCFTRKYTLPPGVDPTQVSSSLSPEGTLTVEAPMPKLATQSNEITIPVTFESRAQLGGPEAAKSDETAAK

Molecular target: Heat shock protein beta-1 (Homo sapiens, UniProt P04792)
Assay: Binding affinity to HSP27 (79 to 176 residues) (unknown origin) expressed in Escherichia coli BL21 (DE3) cells by HSQC NMR analysis

O=[N+]([O-])c1ccc(Oc2ccc(Oc3ccc([N+](=O)[O-])cc3[N+](=O)[O-])c(F)c2)c([N+](=O)[O-])c1
Kd(app): inactive

O=[N+]([O-])c1ccc(Oc2ccc(Oc3ccc([N+](=O)[O-])cc3[N+](=O)[O-])cc2)c([N+](=O)[O-])c1
Kd(app): inactive
